PubChem BioAssay AID1259414 – Drosophila RNAi Screening Center, 2018

- Assay: 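Fly genes that alter Wolbachia amount inside host cells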 (primary screen)
- Cells: Drosophila JW18 cells infected with Wolbachia
- Reagents: long dsRNA against Drosophila genes, 0.25 µg dsRNA per well of a 384-well plate
- Duration: 5 days
- Challenge: cells persistently infected with Wolbachia before knock-down; no added drug
- Detection: 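Imaged fluorescence in situ signal for Wolbachia 23S rRNA per DAPI-counted host cell, given as a robust z-score within each plate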
- Direction: Wolbachia per cell robust z: higher = more Wolbachia per host cell than the plate typical
- Active means: 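Hit when robust z is 1.5 or more, or -1.5 or less, in at least two of three replicates; excludes dsRNAs with several or no targets, genes not expressed in JW18 and well A1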
The screen tested about 24,000 reagents; this is an unselected part of those that have a named target and a result. In the full data, about 1,210 (5%) were called active. 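Inactive calls also include excluded dsRNAs with several or no targets, genes unexpressed in JW18, and well A1, regardless of score.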 Names joined by + are all predicted targets of the reagent.

| Wolbachia per cell robust z, rep 1 | Wolbachia per cell robust z, rep 2 | Wolbachia per cell robust z, rep 3 | outcome | target | amplicon |
| --- | --- | --- | --- | --- | --- |
| -0.0034 | 1.26 | -0.712 | inactive | CG18327 | DRSC06722 |
| 0.323 | -0.267 | -0.203 | inactive | CG18327 | DRSC24393 |
| -4.34 | -1.36 | 0.516 | inactive | CG13339 | DRSC06373 |
| 1.06 | -5.43 | -2.63 | active | eEFSec | DRSC04571 |
| 0.975 | 0.41 | 0.342 | inactive | CG30203 | DRSC06690 |
| 0.675 | -0.239 | 0.843 | inactive | CG34170 | DRSC38736 |
| 1.91 | -1.55 | -4.7 | inactive | run (runt) | DRSC20584 |
| 0.0243 | -0.196 | -1.17 | inactive | run (runt) | DRSC21515 |
| -0.789 | -0.551 | -0.671 | inactive | run (runt) | DRSC27251 |
| 0.503 | 0.6 | 0.451 | inactive | run (runt) | DRSC40668 |
| 0.757 | 0.645 | 1.54 | inactive | Srg3 (Sting-regulated gene 3) | DRSC08984 |
| -0.171 | -1.77 | -1.43 | inactive | Srg3 (Sting-regulated gene 3) | DRSC10178 |
| -2.09 | -2.1 | 0.637 | active | Mo25 | DRSC11224 |
| -2.52 | 0.198 | -1.37 | inactive | CG42364 | DRSC40614 |
| 0.564 | 0.976 | 1.74 | inactive | CG31600 | DRSC22541 |
| 0.137 | -1.15 | 0.115 | inactive | CG31600 | DRSC30096 |
| 0.435 | 0.554 | -2.27 | inactive | CNT1 + CG13742 | DRSC06413 |
| -1.46 | -0.526 | -0.531 | inactive | CNT1 + CG13742 | DRSC28676 |
| -0.397 | 0.312 | 0.895 | inactive | CG34458 | DRSC06925 |
| 0.303 | 0.291 | -0.691 | inactive | CG34458 | DRSC41295 |
| 0.403 | -0.854 | 0.225 | inactive | CG4073 | DRSC15542 |
| -5.35 | 1.22 | 0.873 | inactive | Ugt302K1 (UDP-glycosyltransferase family 302 member K1) | DRSC16086 |
| 0.363 | 0.243 | -0.555 | inactive | esg (escargot) | DRSC03530 |
| 0.226 | -0.741 | -0.831 | inactive | CG31525 | DRSC12004 |
| 0.345 | -0.501 | -0.56 | inactive | aralar1 | DRSC13987 |
| 0.387 | -0.348 | 0.167 | inactive | aralar1 | DRSC16901 |
| 0.954 | 0.962 | 0.638 | inactive | aralar1 | DRSC29693 |
| -0.27 | -1.47 | -0.0636 | inactive | CG4686 | DRSC15622 |
| -0.0193 | 0.264 | 0.267 | inactive | babo (baboon) | DRSC07581 |
| 0.398 | 0.426 | -0.0836 | inactive | babo (baboon) | DRSC40774 |
| 0.238 | 1.42 | 0.418 | inactive | CG4186 | DRSC11753 |
| 0.515 | 0.461 | 0.681 | inactive | CG4186 | DRSC41321 |
| -0.937 | 0.73 | 0.887 | inactive | Dpm2 + CG12016 | DRSC25292 |

Records listed above called active:
| Wolbachia per cell robust z, rep 1 | Wolbachia per cell robust z, rep 2 | Wolbachia per cell robust z, rep 3 | outcome | target | amplicon |
| --- | --- | --- | --- | --- | --- |
| 1.06 | -5.43 | -2.63 | active | eEFSec | DRSC04571 |
| -2.09 | -2.1 | 0.637 | active | Mo25 | DRSC11224 |

The results go on.
| Wolbachia per cell robust z, rep 1 | Wolbachia per cell robust z, rep 2 | Wolbachia per cell robust z, rep 3 | outcome | target | amplicon |
| --- | --- | --- | --- | --- | --- |
| -3.07 | -1.03 | 1.08 | inactive | Mtp (Microsomal triacylglycerol transfer protein) | DRSC03216 |
| -0.185 | -0.669 | -0.692 | inactive | Nplp3 (Neuropeptide-like precursor 3) | DRSC25046 |
| -0.488 | 0.239 | -0.356 | inactive | GNBP1 (Gram-negative bacteria binding protein 1) | DRSC11169 |
| -1.57 | -2.45 | -0.255 | active | GNBP1 (Gram-negative bacteria binding protein 1) | DRSC21836 |
| 0.266 | 0.945 | 0.955 | inactive | CG15330 | DRSC18014 |
| -1.54 | -0.342 | -0.368 | inactive | CG43110 | DRSC40543 |
| -0.287 | 0.089 | 0.264 | inactive | CG11125 | DRSC06042 |
| 0.355 | 0.823 | 0.448 | inactive | Taf11 (TBP-associated factor 11) | DRSC03448 |
| -0.381 | 1.18 | 0.0987 | inactive | AgmNAT (Agmatine N-acetyltransferase) | DRSC18072 |
| -1.74 | 1.55 | -0.782 | inactive | CG14569 | DRSC11730 |
| 1.25 | 1.75 | -1.24 | inactive | Esyt2 (Extended synaptotagmin-like protein 2) | DRSC16082 |
| 0.241 | 0.243 | -0.0187 | inactive | CG32669 | DRSC18864 |
| 0.407 | -0.421 | -0.309 | inactive | sm (smooth) | DRSC05795 |
| 1.23 | -0.235 | 0.449 | inactive | sm (smooth) | DRSC07686 |
| -0.834 | 1.09 | 1.09 | inactive | sm (smooth) | DRSC40706 |
| 0.649 | -0.0769 | -0.314 | inactive | CG15239 | DRSC17972 |
| 1.49 | 0.353 | 1.19 | inactive | CG15239 | DRSC25155 |
| -0.798 | -0.715 | 0.0992 | inactive | CG3045 | DRSC04331 |
| -0.798 | 0.459 | -0.875 | inactive | LysD (Lysozyme D) | DRSC26238 |
| -0.648 | 0.479 | 0.466 | inactive | CR14033 (pseudo) | DRSC02358 |
| 0.65 | 0.366 | 0.33 | inactive | CR14033 (pseudo) | DRSC24988 |
| -0.702 | -0.317 | -0.194 | inactive | ord (orientation disruptor) | DRSC04706 |
| 0.604 | 0.25 | 0.977 | inactive | pdm2 (POU domain protein 2) | DRSC02496 |
| 0.0561 | -1 | -3.85 | inactive | pdm2 (POU domain protein 2) | DRSC03587 |
| -0.828 | -1.09 | -1.24 | inactive | Dhc93AB (Dynein heavy chain at 93AB) | DRSC16644 |
| -0.38 | -0.743 | 0.11 | inactive | Dhc93AB (Dynein heavy chain at 93AB) | DRSC28116 |
| -1.04 | -1.11 | -0.634 | inactive | kl-2 (male fertility factor kl2) | DRSC21136 |
| 0.424 | -1.67 | 0.282 | inactive | kl-2 (male fertility factor kl2) | DRSC37780 |
| 1.91 | -0.999 | 0.671 | inactive | msn (misshapen) | DRSC07990 |
| -0.718 | 0.148 | -0.515 | inactive | msn (misshapen) | DRSC08498 |
| -2.2 | -0.562 | -1.27 | inactive | msn (misshapen) | DRSC25188 |
| 0.469 | 0.459 | 1.15 | inactive | msn (misshapen) | DRSC40787 |
| -0.552 | -1.06 | -3.38 | inactive | Dh44-R2 (Diuretic hormone 44 receptor 2) | DRSC06141 |
| -1.41 | -2.7 | -0.67 | inactive | Dh44-R2 (Diuretic hormone 44 receptor 2) | DRSC06281 |
| -1.67 | -0.4 | -0.589 | inactive | CG13258 | DRSC02244 |
| 0.539 | -0.828 | 0.627 | inactive | CG32054 | DRSC10684 |
| -0.368 | 0.0588 | -0.449 | inactive | CG32054 | DRSC24449 |
| 0.111 | 0.0647 | 0.552 | inactive | lectin-37Da | DRSC03278 |
| 0.249 | 0.467 | 0.338 | inactive | lectin-37Da | DRSC22729 |
| 0.133 | -1.22 | -1.35 | inactive | CG31802 | DRSC02459 |
| -0.723 | 0.37 | 0.108 | inactive | CG34217 | DRSC38886 |
| 1.56 | -1.23 | 0.355 | inactive | CG18493 | DRSC15334 |
| -1.88 | -1.47 | -1.32 | inactive | CG18335 | DRSC06723 |
| 1.16 | 0.641 | -0.469 | inactive | CG18335 | DRSC29997 |
| -0.0246 | 0.384 | -0.736 | inactive | CheB38b (Chemosensory protein B 38b) | DRSC22874 |
| 0.839 | 0.253 | 0.54 | inactive | chm (chameau) | DRSC03341 |
| -1.25 | -0.279 | -1.26 | inactive | chm (chameau) | DRSC24941 |
| 1.07 | -0.382 | -0.303 | inactive | CG3894 | DRSC01762 |
| -1.4 | -0.709 | -0.704 | inactive | CG3894 | DRSC04012 |
| -4.41 | -3.63 | -0.152 | active | CG3894 | DRSC04429 |
| 1.41 | 0.579 | 2.36 | inactive | Brd8 (Bromodomain containing 8) | DRSC14866 |
| 0.545 | 0.503 | 0.296 | inactive | Brd8 (Bromodomain containing 8) | DRSC28811 |
| 0.487 | 0.56 | 1.03 | inactive | CG34330 | DRSC20043 |
| -1 | -0.594 | -0.095 | inactive | CG34330 | DRSC29637 |
